Test results: publication PMC9585728, “Antiviral activity and mechanism of the antifungal drug, anidulafungin, suggesting its potential to promote treatment of viral diseases” (BMC Medicine, 2022)
Like-named read-outs stand apart in the source and are kept apart here. Starred links: 1 amine or outer side, 2 acyl side, 3 side chain; linkers in the order of their positions; H or OH if unused. Positions of bridges follow the written chain, without caps; N, C: chain ends. Non-standard residues stand in square brackets, D forms with d. Residues, ends and D or L forms follow the SMILES beside them. *: point of attachment. pTerphenylCO(4''-OnC5H11) = CCCCCOc1ccc(-c2ccc(-c3ccc(C(=O)*)cc3)cc2)cc1; Orn(4R-OH,5R-OH) = O=C([C@H](C[C@@H](O)[C@@H](O)N[*:3])N[*:1])[*:2]; hTyr(3S-OH,4S-OH) = N[C@H](C(=O)O)[C@H](O)[C@@H](O)c1ccc(O)cc1; Pro(3S-OH,4S-Me) = C[C@H]1CN[C@H](C(=O)O)[C@H]1O; Hyp = O=C(O)[C@@H]1C[C@@H](O)CN1

System: SFTSV virions
Set-up: species or system severe fever with thrombocytopenia syndrome virus
Conditions: 37 °C, 1 h

CCCCCOc1ccc(-c2ccc(-c3ccc(C(=O)N[C@H]4C[C@@H](O)[C@@H](O)NC(=O)[C@@H]5[C@@H](O)[C@@H](C)CN5C(=O)[C@H]([C@@H](C)O)NC(=O)[C@H]([C@H](O)[C@@H](O)c5ccc(O)cc5)NC(=O)[C@@H]5C[C@@H](O)CN5C(=O)[C@H]([C@@H](C)O)NC4=O)cc3)cc2)cc1 [Anidulafungin, anidulafungin] ({pTerphenylCO(4''-OnC5H11)}-[Orn(4R-OH,5R-OH)]T[Hyp][hTyr(3S-OH,4S-OH)]T[Pro(3S-OH,4S-Me)]; lactam 1-C)
diameter of SFTSV virions (20 μM): approximately 80 nm
diameter of SFTSV virions (50 μM): 90–100 nm
diameter of SFTSV virions (100 μM): 110–120 nm
